Compound potency records, mixed from different reports. Data source: NIAID ChemDB in PubChem.

Common to all: tests in culture; agent: Candida albicans

ECn is the concentration giving n% inhibition of infection, replication or growth. Lines come from different laboratories, so protocols vary. An empty or dashed field is not shown. MIC50, MIC90 and the like: level of inhibition, or share of isolates inhibited. Two numbers with a dash give a range or band.

compound	method	measure	strain	result
COc1ccc(N2CCN(c3nc(NCCNc4ncnc5c(Br)cc(Br)cc45)nc(NC4CC4)n3)CC2)cc1	agar	MIC	MTCC 183	50 µg/mL
O=C(N/N=C/c1ccc(Cl)cc1Cl)c1ccccc1SSc1ccccc1C(=O)N/N=C/c1ccc(Cl)cc1Cl		MIC		50–125 µg/mL
COc1ccc(/C(CCn2ccnc2)=N/OC(=O)c2ccc(Cl)cc2)cc1	agar diffusion	MIC80		0.3257 µg/mL
N=C(N)Sc1c2ccccc2nc2cccc([N+](=O)[O-])c12		MFC	CNCM 1180-79	>500 µg/mL
O=C(NCc1ccco1)c1cccc(C(=O)NCc2ccco2)n1		MIC		75 µg/mL
Cc1ccc(C(=O)O/N=C(\CCn2ccnc2)c2ccccc2)cc1	agar diffusion	MIC80		0.3752 µg/mL
O=C(NNCc1ccc(Cl)cc1Cl)c1ccccc1SSc1ccccc1C(=O)NNCc1ccc(Cl)cc1Cl		MIC		>250 µg/mL
O/N=C(/CCn1ccnc1)c1ccc(Cl)cc1	agar diffusion	MIC80		0.5019 µg/mL
Cc1ccc(/C(=N\OC(=O)c2ccccc2)c2cc3ccccc3o2)cc1		MIC		4 µg/mL
N/C(=N\NC(=O)c1ccccc1)SCc1cccc(Cl)c1		MIC		>100 µg/mL
COc1ccc(/C(=N\OC(=O)c2ccccc2)c2cc3ccccc3o2)cc1		MIC		8 µg/mL
Clc1ccc(C(c2ccccc2)N2CCN(c3nc(NCCNc4ncnc5c(Br)cc(Br)cc45)nc(NC4CC4)n3)CC2)cc1	agar	MIC	MTCC 183	25 µg/mL
Clc1ccc(COC(Cn2ccnc2)c2ccc(Cl)cc2Cl)c(Cl)c1	agar diffusion	MIC80		0.0188 µg/mL
CCSc1c2ccccc2nc2cccc([N+](=O)[O-])c12		MFC	CNCM 1180-79	>500 µg/mL
CCCCSc1cc(=S)ss1		MIC	ATCC 10231	125 µg/mL
N/C(=N\NC(=O)c1ccc([N+](=O)[O-])cc1)SCc1cccc(Cl)c1		MIC		>100 µg/mL
O=C(N/N=C/c1ccc(Cl)c(Cl)c1)c1ccccc1SSc1ccccc1C(=O)N/N=C/c1ccc(Cl)c(Cl)c1		MIC		125 µg/mL
Cc1c(O)cccc1C(=O)N[C@@H](CSc1ccccc1)[C@H](O)CN1C[C@H]2CCCC[C@H]2C[C@H]1C(=O)NC(C)(C)C		MIC	I96A	64 µg/mL
CC1OC(OC2CCC(c3ccc4c(c3O)C(=O)C3=C(C4=O)[C@@]4(O)C(=O)C[C@](C)(OC5C=CC(=O)C(C)O5)C[C@@]4(O)C=C3)OC2C)C=CC1=O		MIC	6 strains	78 µg/mL
CCSc1ssc(=S)c1-c1ccccc1		MIC	ATCC 10231	>250 µg/mL
Clc1ccc(CO/N=C(\c2ccc(Cl)cc2)c2cc3ccccc3o2)cc1		MIC		8 µg/mL
CCSc1ssc(=S)c1OC		MIC	ATCC 10231	62.5 µg/mL
C=CCS/C(N)=N/NC(=O)c1ccc(F)cc1		MIC		>100 µg/mL
CCN1CCN(c2nc(NCCNc3ncnc4c(Br)cc(Br)cc34)nc(NC3CC3)n2)CC1	agar	MIC	MTCC 183	100 µg/mL
CC1=CC[C@H]2C[C@@H]1C2(C)C.C[C@@H]1[C@H](O)[C@@H](C)/C=C/C=C/C=C/C=C/C=C/C=C/C=C/[C@H](O[C@@H]2O[C@H](C)[C@@H](O)[C@H](N)[C@@H]2O)C[C@@H]2O[C@](O)(C[C@@H](O)C[C@@H](O)[C@H](O)CC[C@@H](O)C[C@@H](O)CC(=O)O[C@H]1C)C[C@H](O)[C@H]2C(=O)O	broth dilution	MIC	ATCC 10231	390 µg/mL
O=C(O/N=C(\CCn1ccnc1)c1ccccc1)c1ccc(F)cc1	agar diffusion	MIC80		0.3708 µg/mL
Cn1c2ccccc2c(=O)c2c([N+](=O)[O-])ccc(CCN)c21		MIC	CNCM 1180-79	50 µg/mL
Oc1ccccc1C1OCC(COCc2ccccc2)O1	broth dilution	MIC	ATCC 10231	78.12 µg/mL
O=C(N/N=C/c1ccnc2ccccc12)c1ccccc1SSc1ccccc1C(=O)N/N=C/c1ccnc2ccccc12		MIC		25–50 µg/mL
COC(=O)[C@@H]1OC(c2ccccc2O)O[C@H]1C(=O)OC	broth dilution	MIC	ATCC 10231	312.5 µg/mL
CCN(CC)CCn1c2ccccc2c(=O)c2c([N+](=O)[O-])cccc21		MIC	CNCM 1180-79	1000 µg/mL
CO/N=C(\c1ccc(C)cc1)c1cc2ccccc2o1		MIC		1 µg/mL
CN(C)C(=O)c1ccc2nc(NC(=O)CC3CCC[C@@H](NCc4ccc5ccccc5c4)C3)sc2c1		MIC		3.1 µg/mL
C[n+]1c2cccc(Cl)c2cc2sc3ccccc3c21	resazurin	EC50	ATCC 90028	>20 µg/mL
O=C(O/N=C(\CCn1ccnc1)c1ccccc1)c1ccc(Cl)cc1	agar diffusion	MIC80		0.0054 µg/mL
CCOC(=O)c1oc2cccc(OCCCNCc3cccnc3)c2c1C		MIC		1.6 µg/mL
C[n+]1c2c(Cl)cccc2cc2sc3ccccc3c21	resazurin	MIC	ATCC 90028	>20 µg/mL
Brc1cc(Br)c2ncnc(NCCNc3nc(NC4CC4)nc(N4CCN(c5ccccn5)CC4)n3)c2c1	agar	MIC	MTCC 183	100 µg/mL
Cc1ccc(/C(=N\O)c2cc3ccccc3o2)cc1		MIC		2 µg/mL
O=C(O)c1cccc(C(=O)NCc2ccco2)n1		MIC		226 µg/mL
CO/N=C(\c1ccccc1)c1cc2ccccc2o1		MIC		2 µg/mL
Cc1ccc(C(=O)NNC(N)=S)cc1		MIC		>100 µg/mL
CO/N=C(\c1ccc(Cl)cc1)c1cc2ccccc2o1		MIC		2 µg/mL
C[C@H]1[C@H](O)[C@@H](C)/C=C/C=C/C=C/C=C/C=C/C=C/C=C/[C@H](O[C@@H]2O[C@H](C)[C@@H](O)[C@H](N)[C@@H]2O)C[C@@H]2O[C@](O)(C[C@@H](O)C[C@@H](O)CC[C@H](O)[C@@H](O)C[C@@H](O)CC(=O)O[C@H]1C)C[C@H](O)[C@H]2C(=O)O		MIC		40 µg/mL

Again, the opening 5 rows:

compound,method,measure,strain,result
COc1ccc(N2CCN(c3nc(NCCNc4ncnc5c(Br)cc(Br)cc45)nc(NC4CC4)n3)CC2)cc1,agar,MIC,MTCC 183,50 µg/mL
O=C(N/N=C/c1ccc(Cl)cc1Cl)c1ccccc1SSc1ccccc1C(=O)N/N=C/c1ccc(Cl)cc1Cl,,MIC,,50–125 µg/mL
COc1ccc(/C(CCn2ccnc2)=N/OC(=O)c2ccc(Cl)cc2)cc1,agar diffusion,MIC80,,0.3257 µg/mL
N=C(N)Sc1c2ccccc2nc2cccc([N+](=O)[O-])c12,,MFC,CNCM 1180-79,>500 µg/mL
O=C(NCc1ccco1)c1cccc(C(=O)NCc2ccco2)n1,,MIC,,75 µg/mL